This is an account of results in PubChem BioAssay AID540267 (National Center for Advancing Translational Sciences (NCATS), 2011).

This is a selection; strong and weak results do not stand in their true shares. Some salts or complexes appear as unconnected parts, following the source record. The source made the active and inactive calls. Cut-off read from the data, not from the text of the source: active = activity change below about -80%; inconclusive = between about -30% and that limit; inactive = weaker than that.
% is set by controls: 0 for no effect and ±100 for the full control effect.

The assay can be described thus: Small Molecules that selectively kill Giardia lamblia: qHTS.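 Note: parasites exposed to compound for two days anaerobically before the ATP read.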 The settings on record: Giardia lamblia trophozoite viability; at 7.66 µM; stronger effect = lower value. The source says: Giardia lamblia is a human pathogen afflicting impoverished nations, and the most common cause of outbreaks of diarrhea in the United States. Giardia has been classified by the CDC as a category B bioterrorism organism. The favored anti giardiasis drugs in the US are metronidazole or tinidazole, compounds that have undesirable side effects. Moreover, increasing resistance to drug regimes and recurrence are a concern. It is thus clear that alternative drug treatments are needed.
In a collaboration between the University of Maryland, College Park and the NIH Chemical Genomics Center, a bioluminescence Giardia viability assay based on the trophozoites' ATP content was developed. This assay is suitable for high throughput screening, and miniaturized the assay for compound screening in 1536-well plates. The goal of the project is to screen the Molecular Libraries Small Molecule Repository (MLSMR) for compounds that selectively kill Giardia trophozoites.
NIH Chemical Genomics Center [NCGC]
NIH Molecular Libraries Probe Centers Network [MLPCN]
Assay Submitter (PI): Osnat Herzberg, University of Maryland, College Park, MD.
1. Dispense 2 ul/well media
2. Dispense 23 nl/well compounds
3. Dispense 4 ul/well Giardia trophozoites at a concentration of 100 cells/well
4. Incubate 48 hrs at 37 deg C anaerobically
5. Dispense 4 ul/well ATPLite 1-Step Luminescence assay kit
6. Incubate 15-30 min at room temperature
7. Read luminescence signal on ViewLux plate reader
For orientation: In qHTS, concentration-response curves come from the screen itself.
As for `O=C(NCC1(N2CCCCC2)CCCCC1)c1cccc(C(F)(F)F)c1`, the activity change is inactive: -18.4%.
Consider `COc1cc(C(=O)NCC2(N3CCCCC3)CCCCC2)ccc1OC(F)F`, for which the activity change is inactive: -6.83%.
Under `O=C(NCC1(N2CCOCC2)CCCCC1)c1cc(=O)[nH]c2ccccc12` stands inactive: 7.51%; under `CN1CCN(CCOC(=O)C(O)(c2ccccc2)c2ccccc2)CC1`, inactive: -11%.
With `COc1ccc(NC2CCN(C(=O)OC(C)(C)C)CC2)cc1` the figure was inactive: 12.6%.
With `CC(C)c1ccc(C(=O)NCC2(N3CCOCC3)CCCCC2)cc1` the figure was inactive: 9.91%; with `O=C(NCC1(N2CCCCC2)CCCCC1)c1ccc(OC(F)F)cc1`, inactive: 5.8%; with `CCN1CCC(Nc2ccc(Cl)cc2)CC1`, inactive: 6.91%.
For the molecule `N#CC1(Nc2ccccc2)CCN(CCc2ccccc2)CC1`, the activity change is inactive: 1.65%.
Under `O=C(NCC1(N2CCCCC2)CCCCC1)c1cccc([N+](=O)[O-])c1` stands inactive: -22.1%; under `CSc1ccc(C(=O)NCC2(N3CCOCC3)CCCCC2)cc1`, inactive: -29.1%; under `O=C(OC1CN2CCC1CC2)c1ccc([N+](=O)[O-])cc1` (stereo not given), inactive: 1.12%.
Under `CN1CCC(Nc2cccc(F)c2)CC1` stands inactive: 21.9%; under `O=C(NCC1(N2CCCCC2)CCCCC1)c1cncc(Br)c1`, inactive: 6.28%.
Under `COc1ccc2c(c1O)-c1c(O)c(OC)cc3c1[C@H](C2)[N+](C)(C)CC3.O=[N+]([O-])c1cc([N+](=O)[O-])c([O-])c([N+](=O)[O-])c1[O-]` stands inactive: -19.3%; under `CCCOc1ccc(C(=O)NCC2(N(C)C)CCCCC2)cc1OC`, inactive: 5.69%.
Take `CC(C)c1ccc(NC2CCN(C(=O)OC(C)(C)C)CC2)cc1`: the activity change is inactive: -9.47%.
Under `COc1ccc(CN(CCCl)CCCl)cc1Cl` stands inactive: -2.76%; under `O=[N+]([O-])c1cc([N+](=O)[O-])c(OC2CCCCC2O)c([N+](=O)[O-])c1` (stereo not given), inactive: 7.23%.
Under `CN(C)c1cccc(C(=O)NCC2(N3CCCCC3)CCCCC2)c1` stands inactive: -11.3%; under `COc1cc(OC)c(C(=O)NCC2(N(C)C)CCCCC2)cc1OC`, inactive: -12%.
With `O=C(NCC1(N2CCOCC2)CCCCC1)c1cc(F)c(F)cc1Cl` the figure was inactive: 20.6%.
With `O=C(NCC1(N2CCCCC2)CCCCC1)c1ccc(Cl)nc1`, the activity change is inactive: 19.8%.
As for `Cc1cc(C)cc(N(C(=O)c2ccccc2)C2CCN(C(=O)OC(C)(C)C)CC2)c1`, the activity change was inactive: -12.1%.
For the molecule `O=C(NCC1(N2CCOCC2)CCCCC1)c1cc2ccccc2o1`, the activity change is inactive: 11.4%.
For `O=C(NCC1(N2CCCCC2)CCCCC1)c1ccc(Cl)s1`, the activity change is inactive: 14%.
As to `N#CC1(Nc2ccccc2)CCN(Cc2ccccc2)CC1`, the activity change was inactive: 16.5%.
Under `O=C(OC1CN2CCC1CC2)C1c2ccccc2Oc2ccccc21` (stereo not given) stands inactive: -3.27%; under `COc1ccc(Cl)cc1C(=O)NCC1(N2CCOCC2)CCCCC1`, inactive: -0.696%.
Under `O=C1C(O)=C([N+](=O)[O-])C(=O)C(O)=C1[N+](=O)[O-]` stands inactive: 11.4%; under `COc1ccc(C(=O)NCC2(N3CCCCC3)CCCCC2)cc1`, inactive: 10.3%; under `COc1ccc(C(=O)NCC2(N3CCCCC3)CCCCC2)c(OC)c1OC`, inactive: 4.96%.
With `CC(C)(C)OC(=O)N1CCC(N(C(=O)c2ccccc2)c2ccc(F)cc2)CC1` the figure was inactive: 40.1%.
For the molecule `O=C(NCC1(N2CCCCC2)CCCCC1)c1ccc(=O)[nH]c1`, the activity change was inactive: -12.4%.
Under `O=C(NCC1(N2CCCCC2)CCCCC1)c1cccs1` stands inactive: 0.609%; under `CSc1ccccc1C(=O)NCC1(N2CCCCC2)CCCCC1`, inactive: -3%.
Under `Cc1cccc(NC2(C#N)CCN(Cc3ccccc3)CC2)c1` stands inactive: -10.2%; under `CCOC(=O)N1CCC(Nc2cccc(C)c2)CC1`, inactive: -17.6%; under `COc1cc(C(=O)NCC2(N(C)C)CCCCC2)ccc1OC(F)F`, inactive: 14.4%.
Under `O=C1CCN(Cc2ccccc2)CC1` stands inactive: -3.41%; under `CCOc1ccc(C)cc1CN(CCCl)CCCl`, inactive: -3.99%; under `O=P1(N(CCCl)CCCl)SCCCS1`, inactive: -14.9%.
`CCCCOc1ccc(C(=O)NCC2(N3CCOCC3)CCCCC2)cc1`: the activity change was inactive: 0.689%.
With `O=C(NCC1(N2CCCCC2)CCCCC1)c1ccc(F)cc1` the figure was inactive: 14.7%.
Under `COc1ccc(NC2CCN(CCc3ccccc3)CC2)c(OC)c1` stands inactive: -3.3%; under `CCOC(=O)N1CCC(Nc2ccc(F)cc2)CC1`, inactive: -3.96%; under `Cc1ccccc1NC1(C#N)CCN(Cc2ccccc2)CC1`, inactive: -17.3%.
In the case of `CCN1CCC(Nc2cccc(F)c2)CC1`, the activity change was inactive: 14.6%.
With `O=C(NCC1(N2CCCCC2)CCCCC1)c1ccco1` the figure was inactive: 3.73%.
Under `CN(C)c1ccc(C(=O)NCC2(N3CCCCC3)CCCCC2)cc1` stands inactive: 4.22%.
For the molecule `Cn1c(=O)[nH]cc(N(CCCl)CCCl)c1=O`, the activity change was inactive: -14.7%.
Consider `CC(=O)N(c1ccccc1)C1CCNCC1`, for which the activity change is inactive: 57.5%.
As to `COc1cc(OC)cc(C(=O)NCC2(N3CCCCC3)CCCCC2)c1`, the activity change was inactive: -10.3%.
With `Cc1ccc(C(=O)NCC2(N3CCCCC3)CCCCC2)o1` the figure was inactive: 1.8%; with `Fc1ccccc1NC1CCN(Cc2ccccc2)CC1`, inactive: 3.01%.
On to `Cc1ccc(NC2(C#N)CCN(Cc3ccccc3)CC2)cc1`, for which the activity change was inactive: 2.34%.
With `COc1cc(OC)cc(C(=O)NCC2(N3CCOCC3)CCCCC2)c1` the figure was inactive: 14.3%; with `COc1cccc(C(=O)N(c2cc(C)cc(C)c2)C2CCN(C(=O)OC(C)(C)C)CC2)c1`, inactive: 11.9%; with `CCC(CO)(C(=O)OC1CN2CCC1CC2)c1ccccc1` (stereo not given), inactive: 11.9%.
Under `CN1CCC(Nc2ccc(Cl)cc2)CC1` stands inactive: -3.72%; under `CCOc1ncccc1C(=O)NCC1(N2CCOCC2)CCCCC1`, inactive: -2.52%; under `CN1CCC(Nc2ccc(F)c(Cl)c2)CC1`, inactive: 0.117%.
Under `CC(C)(C)OC(=O)N1CCC(Nc2ccccc2)CC1` stands inactive: 1.88%; under `O=C(O)C1(Nc2ccccc2)CCN(Cc2ccccc2)CC1`, inactive: -17.7%; under `CCCOc1ccc(C(=O)NCC2(N(C)C)CCCCC2)cc1`, inactive: -10.2%.
Consider `CCOC(=O)N1CCC(Nc2ccc(C)cc2)CC1`, for which the activity change is inactive: 6.01%.
For the molecule `N/C(=N\O)c1c(N)no[n+]1[O-]`, the activity change was inactive: 11.7%.
`CCc1cc(C(=O)NCC2(N3CCCCC3)CCCCC2)sc1C`: the activity change was inactive: 19.3%.
With `O=C(OC1CN2CCC1CC2)C1c2ccccc2C=Cc2ccccc21` (stereo not given), the activity change is inactive: -8.24%.
Under `O=C(O)c1cccc(Nc2c([N+](=O)[O-])cc([N+](=O)[O-])cc2[N+](=O)[O-])c1` stands inactive: -13.2%.
Under `COc1cc(C(=O)NCC2(N3CCOCC3)CCCCC2)cc(OC)c1C` stands inactive: -6.85%.
Consider `O=C(NCC1(N2CCOCC2)CCCCC1)c1cc(Br)ccc1Cl`, for which the activity change was inactive: 0.962%.
On to `COc1ccc(C(=O)NCC2(N3CCOCC3)CCCCC2)cc1OC`, for which the activity change was inactive: 28.7%.
Turning to `CN(C)C1(CNC(=O)c2cccc(C#N)c2)CCCCC1`, the activity change was inactive: 7.11%.
Under `c1ccc(CN2CCC(Nc3ccccc3)CC2)cc1` stands inactive: 29.4%.
With `CCCN1CCC(Nc2cc(OC)cc(OC)c2)CC1` the figure was inactive: -0.571%; with `Cc1cc(N(CCCl)CCCl)ccc1C=O`, inactive: 5.23%.
With `N#Cc1ccc(C(=O)NCC2(N3CCCCC3)CCCCC2)cc1`, the activity change is inactive: -2.16%.
As to `CC(C)(C)OC(=O)N1CCC(N(C(=O)c2ccccc2)c2ccc(Cl)cc2)CC1`, the activity change is inactive: -15.6%.
As for `CCOC(=O)C(CC)C1=NC(C)(C)Cc2ccccc21.O=[N+]([O-])c1cc([N+](=O)[O-])c(O)c([N+](=O)[O-])c1` (stereo not given), the activity change was inactive: -16.2%.
